Results of unrelated studies side by side (data: NIAID ChemDB).

All rows: whole-cell or culture tests; agent: Rhinovirus; endpoint: EC50

ECn is the concentration giving n% inhibition of infection, replication or growth.

smiles	cells	strain or isolate	read by	value
CCOC(=O)c1ccc(OCCOc2ccc(-c3snc(SC)c3C#N)cc2)cc1	HELA-OHIO	Serotype 89 (group B)	cytopathic effect	>2 µM
CC(C)Oc1ccc(Cn2cnc3c(N(C)C)nc(C(F)(F)F)nc32)cc1	M-HELA	Serotype 14	plaque count	>8 µM
CSc1nsc(-c2ccc(OCCOc3ccc([N+](=O)[O-])cc3)cc2)c1C#N	HELA-OHIO	Serotype 70 (group A)	cytopathic effect	>2 µM
CN(C)c1nc(C(F)(F)F)nc2c1ncn2Cc1ccc(C(F)(F)F)cc1	M-HELA	Serotype 2	plaque count	>4 µM
Fc1cccc(Cn2cnc3c(Nc4cccc(F)c4)nc(C(F)(F)F)nc32)c1	M-HELA	Serotype 8	plaque count	3.7 µM
CSc1nsc(-c2ccc(OS(=O)(=O)c3ccc(C)cc3)cc2)c1C#N	HELA-OHIO	Serotype 42 (group A)	cytopathic effect	>25 µM
CN(C)c1nc(C(F)(F)F)nc2c1ncn2Cc1ccc(Cl)c(NC=O)c1	M-HELA	Serotype 2	plaque count	>8 µM
CCOC(=O)c1ccc(OCCC2CCN(c3ccc(C)nn3)CC2)cc1	KB	41467 (ICAM-1 receptor group 89)	neutral red	0.022 µM
COc1ccc(-c2snc(SC)c2C#N)cc1	HELA-OHIO	Serotype 70 (group A)	cytopathic effect	>12 µM
CSc1nsc(-c2ccc(OCCOc3ccccc3)cc2)c1C#N	HELA-OHIO	Serotype 45 (group A)	cytopathic effect	>20 µM
O=[N+]([O-])c1ccc(Cn2cnc3c(Nc4cccc(F)c4)nc(C(F)(F)F)nc32)cc1	M-HELA	Serotype 4	plaque count	>100 µM
CN(C)c1nc(C(F)(F)F)nc2c1ncn2Cc1ccc(S(C)(=O)=O)cc1	M-HELA	TYPE 1B	plaque count	0.5 µM
Cc1cc(CCCCCOc2c(Cl)cc(C3=NCCO3)cc2Cl)on1	HeLa	TYPE 78	plaque count	0.012 µg/mL
CCOC(=O)/C=C/[C@H](C[C@@H]1CCNC1=O)NC(=O)[C@@H](CC(=O)[C@@H](NC(=O)c1cc(C)on1)C(C)C)Cc1ccc(F)cc1	OHIO HELA-I	Isolate 16	cytopathic effect / visual reading	<0.01 µg/mL
CSc1nsc(-c2ccc(OCCCCOc3ccc(C#N)cc3)cc2)c1C#N	HELA-OHIO	Serotype 51 (group B)	cytopathic effect	>2 µM
COc1ccc(Cn2cnc3c(N(C)C)nc(C(F)(F)F)nc32)cc1C	M-HELA	Serotype 5	plaque count	>8 µM
CSc1nsc(-c2ccc(OCCCCOc3ccc([N+](=O)[O-])cc3)cc2)c1C#N	HELA-OHIO	Serotype 51 (group B)	cytopathic effect	>0.5 µM
CSc1nsc(-c2ccc(O)cc2)c1C#N	HELA-OHIO	Serotype 2 (group B)	cytopathic effect	>10 µM
CN(C)c1nc(C(F)(F)F)nc2c1ncn2Cc1ccc(Cl)c(N)c1	M-HELA	Serotype 1B	plaque count	0.19 µM
CCOC(=O)c1ccc(OCCCCOc2ccc(-c3snc(SC)c3C#N)cc2)cc1	HELA-OHIO	Serotype 9 (group B)	cytopathic effect	>2 µM
CN(C)c1nc(C(F)(F)F)nc2c1ncn2Cc1ccc(Cl)cc1Cl	M-HELA	Serotype 1B	plaque count	0.13 µM
CSc1nsc(-c2ccc(OCCCOc3ccc([N+](=O)[O-])cc3)cc2)c1C#N	HELA-OHIO	Serotype 42 (group A)	cytopathic effect	>1 µM

2 of the rows above, restated:

smiles,cells,strain or isolate,read by,value
CSc1nsc(-c2ccc(OCCCCOc3ccc([N+](=O)[O-])cc3)cc2)c1C#N,HELA-OHIO,Serotype 51 (group B),cytopathic effect,>0.5 µM
COc1ccc(Cn2cnc3c(N(C)C)nc(C(F)(F)F)nc32)cc1C,M-HELA,Serotype 5,plaque count,>8 µM

Neighbouring rows are from separate reports.